From ChEMBL document CHEMBL3988442, “University of Dundee, Small-Polar-MMV Screening Library” (2021).

Mtb cholesterol medium: 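Phenotypic screen: M. tuberculosis growth, cholesterol and DPPC medium, 4 days; the read-out is not stated. Concentration: 500 µM. Direction is inferred from retests: higher values go with more growth inhibition. Size under these conditions: about 18,000 compounds, about 900 of them at 50% or above in at least one test.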
Mtb glucose medium: 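Whole-cell growth test on Mycobacterium tuberculosis, read after 3 days in glucose-containing 7H9 medium; the read-out is not stated. Concentration: 500 µM. The record gives no direction; compounds that gave an IC50 in retests scored well above the rest, so higher reads as more growth inhibition. Size under these conditions: about 18,000 compounds, about 1,400 of them at 50% or above in at least one test.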

The filed quantity is “Percent Effect” (%).
The controls that fix the scale are not given in the record; negative values are as filed.
The entries come from a sample that favours strong results.
A dash means the value is not listed here; it may have been measured.

| # | structure | Mtb cholesterol medium | Mtb glucose medium |
|---|---|---|---|
| 1 | `NS(=O)(=O)c1cccc2c1CCCN2Cc1nccs1` | 9.715% | 50.34% |
| 2 | `CNC(=O)C1CCCCN1C(=O)c1ccc(Cl)o1` (stereo not drawn) | - | 11.66% |
| 3 | `CNc1cc(CN(C)Cc2cccs2)ccn1` | 70.35% | 65.45% |
| 4 | `CCOC(=O)c1cc(C(=O)OCC)n(C)n1` | - | -2.257% |
| 5 | `O=C(CN1CCCN(CC2CC2)CC1)N1CCCC1` | 5.955% | - |
| 6 | `CCn1ncnc1C(C)NC(=O)Cc1ccncc1` (stereo not drawn) | - | -5.505% |
| 7 | `Cc1ccc(NC(=O)N2CCSCC2)cc1C(N)=O` | -13.83% | - |
| 8 | `CS(=O)(=O)c1cccc(Cl)c1C(N)=O` | - | 4.572% |
| 9 | `O=C(CNC(=O)NC1CCCC1)Nc1ccccc1` | - | 7.99% |
| 10 | `Cn1c(CN)nc2ccc(F)cc21` | - | 25.34% |
| 11 | `CN(CCOc1ccccc1)C(=O)c1cnn(C)c1N` | - | 29.39% |
| 12 | `COCCCNC(=O)c1ccc(NC(C)=O)cc1` | -14.61% | 4.07% |
| 13 | `CN(C)S(=O)(=O)Nc1cccc(OCCF)c1` | 29.65% | - |
| 14 | `COC(C)(C)C(=O)NCc1ccnc(NC2CC2)c1` | - | 7.01% |
| 15 | `Cc1cc(-c2noc(C(C)N)n2)ccc1F` (stereo not drawn) | 57.79% | 57.82% |
| 16 | `Cc1cc(NC(=O)CN2CCCC(C)C2)n(C)n1` (stereo not drawn) | -1.491% | - |
| 17 | `COc1ccsc1C(=O)NCCc1nc(N)no1` | 15% | - |
| 18 | `O=C(Nc1ccc(-n2cncn2)nc1)N1CCSCC1` | - | 1.305% |
| 19 | `Cn1ccnc1CN1CCCCC1CN1CCOCC1` (stereo not drawn) | - | 2.077% |
| 20 | `Cn1cnnc1C1CCN(CC2CCOC2)CC1` (stereo not drawn) | - | -17.26% |
| 21 | `COCCC(C)NC(=O)Nc1ccc(C#N)cc1` (stereo not drawn) | 59.05% | 57.64% |
| 22 | `O=C(CN1CCC(CO)CC1)N1CCc2sccc2C1` | - | 11.19% |
| 23 | `C=C(C)CNC(=O)Nc1ccn(-c2ncccc2Cl)n1` | - | -7.725% |
| 24 | `COCc1ccc(C(=O)NCc2cccc(F)c2)o1` | 59.12% | 65.52% |
| 25 | `COc1ccc(Cl)cc1S(=O)(=O)n1cncn1` | - | -1.443% |
| 26 | `Nc1nc(NCc2ccncc2)cc(-n2cccn2)n1` | -13.62% | -8.093% |
| 27 | `COC(=O)N(C)CC(=O)Nc1ccc(C)cc1` | - | 24.73% |
| 28 | `CCNC(=O)C(C)Nc1nc2ccccc2o1` (stereo not drawn) | 13.02% | - |
| 29 | `CC(C)NS(=O)(=O)NC1CCCCNC1=O` (stereo not drawn) | - | 9.142% |
| 30 | `C=C(C)COc1cccc(F)c1C(N)=O` | - | -4.386% |
| 31 | `Cc1cc(C(=O)N2CCOCC2)c2ccc(F)cc2n1` | - | -7.365% |
| 32 | `COCC(C)(CCO)NCc1cc(C)no1` (stereo not drawn) | -6.456% | - |
| 33 | `NC(=O)c1ccccc1C(F)(F)F` | - | 5.944% |
| 34 | `NCc1cccc(S(=O)(=O)N2CCCCC2)c1` | - | 41.11% |
| 35 | `CCC1(CO)CCCN1` (stereo not drawn) | - | -15.67% |
| 36 | `C[n+]1ccn(C(=O)N2CCCCC2)c1.[I-]` | - | 10.87% |
| 37 | `Cc1ccc(-n2nnc(C#N)c2C)cc1` | - | -1.566% |
| 38 | `COCCNC(=O)[C@@H](N)Cc1ccccc1` | - | 0.9472% |
| 39 | `Cn1nc2n(c1=O)C(=O)N(c1ccccc1)C2` | -5.387% | - |
| 40 | `CC1(c2ccccc2)CNCCO1` (stereo not drawn) | - | -12.79% |
| 41 | `Cc1csc(NC(=O)CSc2nccn2C)n1` | -11.69% | - |
| 42 | `CCOc1ccc(C(=O)NCCCO)cc1OCC` | - | 43.67% |
| 43 | `Cc1ccc2cccc(OCC(C)CS(C)(=O)=O)c2n1` (stereo not drawn) | - | -2.807% |
| 44 | `NC(=O)C1CCCN(C(=O)COCc2ccccc2)C1` (stereo not drawn) | - | 6.246% |
| 45 | `Cc1ccc(OCC(=O)N(C)C)c(C)c1` | 27.45% | - |
| 46 | `CNC(=O)CN(CCO)Cc1cc(Br)ccc1F` | 5.191% | 25.18% |
| 47 | `CCCn1ccnc1CNC(=O)[C@H]1CC[C@@H](O)CC1` | -11.51% | - |
| 48 | `CC(Cn1ccnc1)NC(=O)Nc1nccs1` (stereo not drawn) | -9.895% | - |
| 49 | `Cn1cc(C(=O)Nc2ccc3[nH]nnc3c2)ccc1=O` | 7.263% | - |
| 50 | `OC(CSc1ncccc1Br)CN1CCOCC1` (stereo not drawn) | 23.8% | 35.65% |
| 51 | `NC[C@@H](O)c1ccc(Cl)cc1` | 13.36% | 36.96% |
| 52 | `O=C(NC1CCCCC1)C1CCCNC1` (stereo not drawn) | 11.04% | - |
| 53 | `Cc1ccc(C(C)NC(=O)CNC(=O)C2CCCC2)o1` (stereo not drawn) | - | -0.02434% |
| 54 | `NCc1nc(-c2cccc(Cl)c2)no1` | 54.62% | 57.25% |
| 55 | `COCCCNC(=O)CN1CCn2cccc2C1C` (stereo not drawn) | - | -14.62% |
| 56 | `CCN(CC)CCN1CCN(CCOC)CC1` | -15.25% | - |
| 57 | `CCOc1cccc(CCNC(=O)N(C)C(C)C)n1` | 18.07% | 44.42% |
| 58 | `Fc1ccc(N2CCNCC2)nc1` | - | 7.624% |
| 59 | `Cc1n[nH]c(C)c1-c1cncc(C(=O)N2CCCC2)n1` | - | 3.791% |
| 60 | `CC1Oc2ccccc2C(=O)N(C)C1=O` (stereo not drawn) | - | 7.201% |
| 61 | `Cc1cc(C(F)F)nc2sc(C(N)=O)c(N)c12` | - | -12.43% |
| 62 | `COC(=O)c1cccc(F)c1` | 8.886% | - |
| 63 | `Cc1cccc(C)c1OC1CN(C(=O)CS(C)(=O)=O)C1` | - | 30.81% |
| 64 | `CC(C)c1noc(CN2CCC(CC(N)=O)CC2)n1` | - | 14.37% |
| 65 | `CC(C)(N)CN1CCCC1` | 4.301% | 1.595% |
| 66 | `CNCC(=O)Nc1ccc(Br)cn1` | -7.824% | - |
| 67 | `CCN(CC1CCOC1)C(=O)C(C)(C)C` (stereo not drawn) | - | 4.519% |
| 68 | `Cc1ccc(S(=O)(=O)N(C)C(C)CN)cc1` (stereo not drawn) | - | 44.54% |
| 69 | `Cc1cc2c(cc1S(=O)(=O)N1CCCC(N)C1)OCO2` (stereo not drawn) | 2.2% | 50.45% |
| 70 | `Cc1cc(C(=O)N(C)Cc2cccc(C#N)c2)[nH]n1` | - | -1.528% |
| 71 | `CC(C)=CCNC(C(=O)N1CCOCC1)C(C)C` (stereo not drawn) | - | 7.662% |
| 72 | `CC(N)C(=O)N1CCC(Oc2ccccc2Cl)CC1` (stereo not drawn) | 57.68% | 74.98% |
| 73 | `Cc1ncsc1C(=O)NC(CCO)C(C)(C)C` (stereo not drawn) | 0.03788% | -0.333% |
| 74 | `O=c1ccc(F)cn1Cc1ccn(-c2ccccc2)n1` | - | 36.48% |
| 75 | `CCCc1cc(C(=O)N2CCCN(C)CC2)cs1` | 37.91% | 57.51% |
| 76 | `CCN1CCN(CC(=O)Nc2ccc(OC)cc2)CC1` | - | 14.97% |
| 77 | `Cc1cccc(NC(=O)N(C)C(CO)C(C)(C)C)n1` (stereo not drawn) | - | 5.229% |